Measured values from several laboratories, pooled; numbers as filed in NIAID ChemDB.

Common to all: toxicity to cultured cells; cell line: C8166; read-out: CC50

An empty or dashed field is not shown. CCn: concentration that lowers growth or viability of the cells by n%. Neighbouring rows are from separate reports.

smiles	read by	result
CC1=C[C@H]2[C@@]3(O)[C@H](C)[C@@H](O)[C@]4(OC(=O)CCCCCCCCN5CCN(C(=O)CC6(C)C(O)CCC7(C)C8CCC(=O)C8(C)CCC67)CC5)[C@H]([C@@H]3C=C(CO)C[C@]2(O)C1=O)C4(C)C	MTT	18.9 µM
CCCNP(=O)(NCCC)OC[C@H]1O[C@@H](n2cc(C)c(=O)[nH]c2=O)C[C@@H]1N=[N+]=[N-]		>100 µM
CCCCCCCCCCCCCC(=O)O[C@@H]1[C@@H](C)[C@@]2(O)[C@@H](C=C(COC(C)=O)C[C@]3(O)C(=O)C(C)=C[C@@H]23)[C@@H]2C(C)(C)[C@]12O	MTT	25.26 µM
CN(Cc1nc2ccccc2[nH]1)Cc1ncccc1CCC(=O)O	MTT	>10 µM
Cc1cc(S(N)(=O)=O)ccc1NC(=O)COc1ccc(F)cc1Oc1cccc2ccccc12	MTT / absorbance	33.09 µM
CCCCCCOP(=O)(N[C@H](C(=O)OC)C(C)C)OC[C@H]1O[C@@H](n2cc(C)c(=O)[nH]c2=O)C[C@@H]1N=[N+]=[N-]		>100 µM
Cc1cc(S(N)(=O)=O)ccc1NC(=O)COc1ccc(F)cc1Oc1cc2ccccc2cc1C	MTT / absorbance	66.87 µM
CCCCCCCCCCCCCCCCCCOP(=O)([O-])OCC[NH2+]C		>100 µM
CC/C=C\C/C=C\C/C=C\C/C=C\C/C=C\C/C=C\CCC(=O)O[C@@H]1[C@@H](C)[C@@]2(O)[C@@H](C=C(CO)C[C@]3(O)C(=O)C(C)=C[C@@H]23)[C@@H]2C(C)(C)[C@]12OC(=O)CCC	MTT	26.7 µM
CN1CCN(c2ccnc3nc(CN(CCCCN)Cc4ncccc4N4CCOCC4)[nH]c23)CC1	MTT	>10 µM
O=C(O)CCC(=O)NCCCC[C@H](NC(=O)OCc1ccccc1)C(=O)N[C@@H](CCCCNC(=O)CCC(=O)O)C(=O)OCc1ccccc1	XTT	250 µM
Cc1ccc(C)c(NS(=O)(=O)c2cc(C(=O)NCc3ccccn3)ccc2Cl)c1	WST	163 µM
Cc1ccccc1CN(CCCCN)Cc1nc2nccc(N3CCN(C)CC3)c2[nH]1	MTT	>10 µM
Cc1cn([C@H]2C[C@H](N=[N+]=[N-])[C@@H](CO)O2)c(=O)[nH]c1=O	absorbance	1100 µM
CCCCCCCCCCCCOP(=O)([O-])OCC[NH2+]C		>100 µM
CN(Cc1nc2ccccc2[nH]1)Cc1ncccc1CCCNS(C)(=O)=O	MTT	>10 µM
C=C(C)[C@@]12OC3(C)O[C@@H]1[C@@H]1[C@H](O)[C@@](C)(O)[C@@H](O)[C@@]4(O)[C@@H](C=C(C)[C@@H]4O)[C@@]1(O3)[C@H](C)[C@@H]2OCc1ccccc1	MTT	0.1093 µM
O=c1ccn([C@@H]2O[C@H](CO)C[C@@H]2F)c(=O)[nH]1		>100 µM
CCOP(=O)(N[C@@H](C)C(=O)OCc1ccccc1)OC[C@H]1O[C@@H](n2cc(C)c(=O)[nH]c2=O)C[C@@H]1N=[N+]=[N-]		>100 µM
CCCC(=O)O[C@@]12[C@H](OC(=O)/C=C/c3ccccc3)[C@@H](C)[C@@]3(O)[C@@H](C=C(COC(=O)/C=C/c4ccc5c(c4)OCO5)C[C@]4(O)C(=O)C(C)=C[C@@H]34)[C@@H]1C2(C)C	MTT	>200 µM
C=C(C)[C@@]12OC3(C)O[C@@H]1[C@@H]1[C@H](O)[C@@](C)(O)[C@@H](OCc4ccccc4)[C@@]4(O)[C@@H](C=C(C)[C@@H]4OC(C)=O)[C@@]1(O3)[C@H](C)[C@@H]2OCc1ccccc1	MTT	>0.29 µM
CCCC(=O)O[C@@]12[C@H](OC(=O)/C=C/c3ccc(O)c(OC)c3)[C@@H](C)[C@@]3(O)[C@@H](C=C(CO)C[C@]4(O)C(=O)C(C)=C[C@@H]34)[C@@H]1C2(C)C	MTT	77.84 µM
NCCCC[C@H](NC(=O)OCc1ccccc1)C(=O)N[C@@H](CCCCN)C(=O)OCc1ccccc1	XTT	1000 µM
CCOP(=O)(N[C@@H](CC(C)C)C(=O)OC)OC[C@H]1O[C@@H](n2cc(C)c(=O)[nH]c2=O)C[C@@H]1N=[N+]=[N-]		>100 µM
O=C(N[C@@H](CCCCNC(=O)c1cccc(O)c1C(=O)O)C(=O)OCc1ccccc1)OCc1ccccc1	XTT	125 µM
Cc1cccnc1CN(CCCCN)Cc1nc2ncccc2[nH]1	MTT	>10 µM
C=C1C(=O)O[C@H]2[C@@H]1[C@H](OC(=O)C(C)C)[C@@H]1[C@@](C)([C@@H](OC(C)=O)CC[C@]1(C)O)[C@H]2O	absorbance	60.66 µM
CC(=O)NC1C(O)OC(COS(=O)(=O)O)C(OC2OC(C(=O)O)C(OC3OC(CO)C(OC4OC(C(=O)O)C(O)C(O)C4OS(=O)(=O)O)C(OS(=O)(=O)O)C3NS(=O)(=O)O)C(O)C2OS(=O)(=O)O)C1O	absorbance	>300 µg/mL
COc1cccc(C(=O)N2c3ccccc3NC(=O)CC2C)c1	MTT / absorbance	>400 µM
C=Cc1cccnc1CN(CCCCN)Cc1nc2nccc(N3CCN(C)CC3)c2[nH]1	MTT	>10 µM
Cc1cn([C@H]2C[C@H](N=[N+]=[N-])[C@@H](CO)O2)c(=O)[nH]c1=O	MTT	>200 µM
Cc1cc(S(N)(=O)=O)ccc1NC(=O)COc1ccc(Cl)cc1Oc1cc2ccccc2cc1C	MTT / absorbance	76.71 µM
CC1CC(=O)Nc2ccccc2N1C(=O)c1ccc(F)cc1	MTT / absorbance	>400 µM
C=C(C)[C@@]12OC3(c4ccccc4)O[C@@H]1[C@@H]1[C@@H]4O[C@]4(C)[C@@H](O)[C@@]4(O)[C@@H](C[C@H](C)[C@@H]4O)[C@@]1(O3)[C@H](C)[C@@H]2OCc1ccccc1	MTT	0.0301 µM
CN(Cc1ncccc1CCC#N)Cc1nccc2ccccc12	MTT	10 µM
O=C(O)C/C(=C/C(=O)NCCCC[C@H](NC(=O)OCc1ccccc1)C(=O)N[C@@H](CCCCNC(=O)/C=C(/CC(=O)O)C(=O)O)C(=O)OCc1ccccc1)C(=O)O	XTT	250 µM
CN1CCN(c2ccnc3nc(CN(CCCCN)Cc4ccccn4)[nH]c23)CC1	MTT	>10 µM
Cc1cn([C@H]2C[C@H](N=[N+]=[N-])[C@@H](CO)O2)c(=O)[nH]c1=O	fluorescence	>100 µM
Cc1cc(S(N)(=O)=O)ccc1NC(=O)COc1ccc(Cl)cc1C(=O)c1cc(Cl)cc(C#N)c1	MTT / absorbance	>386 µM
CC1CC(=O)Nc2ccccc2N1C(=O)c1ccc(Cl)cc1	MTT / absorbance	>400 µM
NCCCC[C@H](NC(=O)OCc1ccccc1)C(=O)OCc1ccccc1	XTT	200 µM
CC1CC(=O)Nc2ccccc2N1C(=O)c1ccccc1	MTT / absorbance	>400 µM
C/C=C/C(=O)O[C@@H]1[C@@H](C)[C@@]2(O)[C@@H](C=C(CO)C[C@]3(O)C(=O)C(C)=C[C@@H]23)[C@@H]2C(C)(C)[C@]12OC(=O)/C=C/C	MTT	77.6 µM
Cc1cn([C@H]2C[C@H](N=[N+]=[N-])[C@@H](COP(=O)(N[C@@H](C)C(=O)OCc3ccccc3)OCC(Cl)(Cl)Cl)O2)c(=O)[nH]c1=O		>100 µM
C=C(C)[C@@]12OC3(C)O[C@@H]1[C@@H]1[C@H](O)[C@@](C)(O)[C@@H](OC(C)=O)[C@@]4(O)[C@@H](C[C@H](C)[C@@H]4O)[C@@]1(O3)[C@H](C)[C@@H]2OCc1ccccc1	MTT	0.1304 µM

Repeating the first 4 entries:

smiles	read by	result
CC1=C[C@H]2[C@@]3(O)[C@H](C)[C@@H](O)[C@]4(OC(=O)CCCCCCCCN5CCN(C(=O)CC6(C)C(O)CCC7(C)C8CCC(=O)C8(C)CCC67)CC5)[C@H]([C@@H]3C=C(CO)C[C@]2(O)C1=O)C4(C)C	MTT	18.9 µM
CCCNP(=O)(NCCC)OC[C@H]1O[C@@H](n2cc(C)c(=O)[nH]c2=O)C[C@@H]1N=[N+]=[N-]		>100 µM
CCCCCCCCCCCCCC(=O)O[C@@H]1[C@@H](C)[C@@]2(O)[C@@H](C=C(COC(C)=O)C[C@]3(O)C(=O)C(C)=C[C@@H]23)[C@@H]2C(C)(C)[C@]12O	MTT	25.26 µM
CN(Cc1nc2ccccc2[nH]1)Cc1ncccc1CCC(=O)O	MTT	>10 µM